# PubChem BioAssay AID504761, Drosophila RNAi Screening Center, 2011
# Test: 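Genome-wide fly cell screen for genes dengue virus requires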 (primary screen)
# Cells: D.Mel-2 cells from Drosophila
# Reagent: long dsRNA against Drosophila genes
# Challenge: infection with dengue virus type 2; dose and infection time not stated
# Detection: 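Per well on two replicate plates, imaging gave the percent of cells positive for viral envelope protein, ranked by infection, and a nuclear count of cells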
# Scale: infection score: higher = more virus-infected cells
# Call rule: 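Low infection ranks in the two replicates (chance level up to 0.065) followed by a retest with a 1.5-fold or larger significant decrease, p below 0.05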
# Calls: active = confirmed: knock-down lowers infection; inactive = not picked or not confirmed
# The deposit covers about 22,000 reagents; shown is an unselected part of those with a known target gene and a result. Of all reagents, 116 (0.52%) were called active. 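Calls depend on retest data that are not deposited; infection was ranked per plate without normalising between plates; the unit of the infection score is not given.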 The numbers tell different reagents against one gene apart. Names joined by + are all predicted targets of the reagent. Further read-outs or replicates are left out here. The record does not give: the amount of reagent, the time to read-out.
gene knocked down,reagent,"infection score, replicate 1","infection score, replicate 2",Outcome
CG14797 (GeneID 31123),1,20.6,14.9,inactive
CG8927 (GeneID 41964),1,1.62,6.6,inactive
CG8927 (GeneID 41964),2,3.16,4.29,inactive
CG5114 (GeneID 39624),1,9.38,5.54,inactive
key (GeneID 37967),1,27.7,10,inactive
CG31176 (GeneID 42554),1,2.13,0.38,inactive
CG31176 (GeneID 42554),2,6.08,4.06,inactive
CG9536 (GeneID 33904),1,1.85,3.54,inactive
CG9536 (GeneID 33904),2,8.33,7.14,inactive
Gug (GeneID 46156),1,3.23,4,inactive
CG33229 (GeneID 2768996),1,0.47,1.06,inactive
CG33229 (GeneID 2768996),2,5.58,11.8,inactive
AttA (GeneID 36636),1,12,8.94,inactive
AttA (GeneID 36636),2,17.3,2.94,inactive
Cyp312a1 (GeneID 40005),1,7.39,3.53,inactive
Cyp312a1 (GeneID 40005),2,2.76,4.92,inactive
rho-5 (GeneID 2768944),1,1.47,1.63,inactive
rho-5 (GeneID 2768944),2,1.82,2.57,inactive
sowi (GeneID 40809),1,3.84,6.11,inactive
sowi (GeneID 40809),2,2.51,3.12,inactive
ppl (GeneID 40349),1,3.76,6.84,inactive
ppl (GeneID 40349),2,24.1,10.4,inactive
Acbp2 (GeneID 38784),1,3.27,1.71,inactive
Acbp2 (GeneID 38784),2,0.85,1.16,inactive
Rai1 (GeneID 2768882),1,4.1,1.5,inactive
Rai1 (GeneID 2768882),2,23.8,16.3,inactive
CG3744 (GeneID 42972),1,11.2,,inactive
CG3744 (GeneID 42972),2,15.8,7.16,inactive
CG7631 (GeneID 34919),1,4.71,1.49,inactive
CalpA (GeneID 37232),1,2.25,1.11,inactive
CG5781 (GeneID 34678),1,4.69,11,inactive
garz (GeneID 36337),1,6.04,2.95,inactive
CG33301 (GeneID 2768917),1,2.44,2.35,inactive
CG33301 (GeneID 2768917),2,5.12,2.42,inactive
beat-Ib (GeneID 34939),1,22,1.08,inactive
CG11885 (GeneID 33215),1,5.59,12.7,inactive
CG11396 (GeneID 40296),1,4.92,5.41,inactive
CG33284 (GeneID 2768989),1,3.19,16.9,inactive
CG33284 (GeneID 2768989),2,9.38,20.2,inactive
Hsp70Aa + Hsp70Bb + Hsp70Ba + 3 more,1,4.21,10.2,inactive
CG34112 (GeneID 4379842),1,4.15,1.25,inactive
Ance-3 (GeneID 34808),1,10.6,4.99,inactive
Ance-3 (GeneID 34808),2,8.9,1.96,inactive
Or59a (GeneID 37711),1,6.25,2.36,inactive
Loxl2 (GeneID 37485),1,7.41,20.4,inactive
CG13247 (GeneID 40247),1,11.8,13.2,inactive
CG13324 (GeneID 36434),1,3.01,21.9,inactive
Rab9Db + Rab9D + Rab9Fa + 1 more,1,6.13,5.09,inactive
meigo (GeneID 42510),1,,14.1,inactive
meigo (GeneID 42510),2,2.49,1.4,inactive
RhoGAP1A (GeneID 5740235),1,3.35,7.91,inactive
RhoGAP1A (GeneID 5740235),2,2.36,3.42,inactive
CG2889 (GeneID 31977),1,4.85,4.08,inactive
pre-mod(mdg4)-U + mod(mdg4),1,2.25,4.24,inactive
AspRS (GeneID 36420),1,4.35,10.6,inactive
CG2906 (GeneID 35753),1,17.6,8.13,inactive
vls (GeneID 35289),1,22.2,4.12,inactive
vls (GeneID 35289),2,8.07,3.37,inactive

10 entries already listed, sorted by “infection score, replicate 2”, highest first:
gene knocked down,reagent,"infection score, replicate 1","infection score, replicate 2",Outcome
CG13324 (GeneID 36434),1,3.01,21.9,inactive
Loxl2 (GeneID 37485),1,7.41,20.4,inactive
meigo (GeneID 42510),1,,14.1,inactive
CG13247 (GeneID 40247),1,11.8,13.2,inactive
Hsp70Aa + Hsp70Bb + Hsp70Ba + 3 more,1,4.21,10.2,inactive
Rab9Db + Rab9D + Rab9Fa + 1 more,1,6.13,5.09,inactive
Ance-3 (GeneID 34808),1,10.6,4.99,inactive
Or59a (GeneID 37711),1,6.25,2.36,inactive
Ance-3 (GeneID 34808),2,8.9,1.96,inactive
CG34112 (GeneID 4379842),1,4.15,1.25,inactive
